Data on five molecules can be found in ChEMBL document CHEMBL3091350, “Synthesis and evaluation of the antimalarial, anticancer, and caspase 3 activities of tetraoxane dimers” (Bioorg Med Chem, 2013).

For orientation: IC50 means the concentration that gives 50% inhibition.

SMILES strings stand for the structures.

Data set [1] is described as follows: Therapeutic index, ratio of IC50 for human KB cells to IC50 for chloroquine-resistant Plasmodium falciparum K1. In kind it is cell-based.
Data set [2] concerns Plasmodium falciparum. Description: Antimalarial activity against chloroquine-resistant Plasmodium falciparum K1 assessed as parasite growth inhibition after 48 hrs by SYBR green-1 dye-based fluorescence assay.
Data set [3] relates to Plasmodium falciparum. In words: Antimalarial activity against chloroquine-sensitive Plasmodium falciparum 3D7 assessed as parasite growth inhibition after 48 hrs by SYBR green-1 dye-based fluorescence assay.

On to `CC1(CCC(=O)NCCCCNC(=O)CCC2(C)OOC3(CCCCC3)OO2)OOC2(CCCCC2)OO1` (stereo unspecified), for which, in data set [1], the Ratio IC50 was 153. Moreover, the IC50 came to 267 nM with Plasmodium falciparum [2] and 908 nM in the data set on Plasmodium falciparum [3].
For the molecule `CC1(CCC(=O)Nc2cccc(NC(=O)CCC3(C)OOC4(CCCCC4)OO3)c2)OOC2(CCCCC2)OO1` (stereo unspecified), in data set [1], the Ratio IC50 came to 75.4. The IC50 in the data set with Plasmodium falciparum [2] worked out at 102 nM; in the data set on Plasmodium falciparum [3], 305 nM.
The matching figures for `CC1(CCC(=O)NCCNC(=O)CCC2(C)OOC3(CCCCC3)OO2)OOC2(CCCCC2)OO1` (stereo unspecified): 138, 308 nM and 938 nM.
As to `CC1(CCC(=O)NCCCNC(=O)CCC2(C)OOC3(CCCCC3)OO2)OOC2(CCCCC2)OO1` (stereo unspecified), the IC50 in the data set with Plasmodium falciparum [3] worked out at 76.5 nM.
As to `CC1(CCC(=O)Nc2ccc(NC(=O)CCC3(C)OOC4(CCCCC4)OO3)cc2)OOC2(CCCCC2)OO1` (stereo unspecified), the 50% inhibitory concentration (IC50) with Plasmodium falciparum [3] was 40.9 nM.
